# Target: T1, CaBdf1 BD2 Y425F (Candida albicans, UniProt Q5A4W8, Y425F)
# T1 construct: made in house; host or cells: E. coli BL21(DE3), inferred from the wild-type GST construct
# Experiment: Histone peptide microarray binding, YF mutant;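 further: normalized to spotted c-myc peptide positive control signal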
# Parameters: species or system C. albicans
# Details: normalized array signal
# Method: In short, arrays were blocked and incubated with 1 μM of purified CaBdf1 BD1 or BD2. Arrays were incubated with recombinant BDs for 2 h at 4 °C in binding buffer (Tris-HCl 50 mM pH 7.4, NP-40 0.1%, NaCl 150 mM, glycerol 10%). […] Assays were performed in duplicate. Images were acquired on a Bio-Rad ChemiDoc XRS Imaging machine and data were quantified using the array analyser software provided by Active Motif.
row,Sequence,CaBdf1 BD2 Normalized (0 to 100%) YF mutant
1,A R T Kme3 Q T A Rme2s Kme1 S T G G K A P R K Q,0.195%
2,A R T K Q T A Rme2a Kac S pT G G K A P R K Q,0.293%
3,A Rme2a T Kac Q T A Rme2a K S T G G K A P R K Q,0.293%
4,A R T K Q T A Rme2a Kme2 pS pT G G K A P R K Q,0.293%
5,A R T K Q T A Rme2s Kac S pT G G K A P R K Q,0.293%
6,A R T K Q T A Rme2a Kme1 pS pT G G K A P R K Q,0.293%
7,A R T K Q T A R K S pT G G Kac A P R K Q,0.293%
